Chains of the proteins cited; added tags and fusions are not shown.
UniProt Q05097, whole entry: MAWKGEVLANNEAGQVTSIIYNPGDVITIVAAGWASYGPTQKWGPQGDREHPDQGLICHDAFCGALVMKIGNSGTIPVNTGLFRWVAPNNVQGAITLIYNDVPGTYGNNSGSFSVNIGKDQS

According to PMC11228623, “Photoswitchable glycoligands targeting Pseudomonas aeruginosa LecA” (Beilstein Journal of Organic Chemistry, 2024):

Biological target: LecA (Pseudomonas aeruginosa, UniProt Q05097)
Assay: Isothermal titration calorimetry (ITC) of ligand binding to LecA
Conditions: 298 K; for TΔS: derived from ΔG = ΔH − TΔS; for TΔS / −ΔG / n (stoichiometry) / −ΔH: tested form: HCl; for −ΔG: derived from ΔG = −RT ln Kd; for Kd: duplicate, Tris buffer pH 7.5 with 5 or 10% DMSO, Z-isomers measured at PSS370, tested form: HCl; for n (stoichiometry): one site model
Excerpt: The interaction of compounds 1–5 with LecA was characterized by ITC analysis for both the E- and Z-isomers. As the initial isomer state of the galactosyl azobenzenes is the E-form, ITC measurements made on E-isomers correspond to 100% purity of them. After 370 nm irradiation to induce the photoizomerisation process, a photostationary state is reached between E- and Z-isomers. For ITC measurements made on Z-isomers, the percentage of isomers is shown in the column Z/E (PSS370) of Table 1. Depending on the corresponding galactosyl azobenzenes, the Z-isomer is pure from 87 to 99%. Spectroscopy measurements were performed on ligand solution just before each experiment to check the efficiency of the isomerization, with results as indicated in Table 2.
Isothermal titration calorimetry: LecA was expressed and purified as previously described. All experiments were performed at 25 °C with an ITC200 isothermal titration calorimeter (Microcal-Malvern Panalytical, Grenoble, France). The lyophilized LecA protein was dissolved in a buffer composed of 20 mM Tris^.HCl (pH 7.5), 100 mM NaCl and 100 μM CaCl2 with 5% or 10% DMSO final. All compounds were first dissolved in DMSO then in same buffer for a final concentration of 5% or 10% DMSO. The 200 μL sample cell containing LecA (concentrations ranging from 200 to 300 μM) was subjected to injections of ligand solution: 20 injections of 2 μL (2–3 mM, depending on the ligand) at intervals of 120 s while stirring at 850 rpm. Control experiments were performed by repeating the same protocol, but injecting the ligand into buffer solution. The supplied software Origin 7 or MicroCal PEAQ-ITC was used to fit the experimental data to a theoretical titration curve allowing the determination of affinity (i.e., dissociation constant, Kd), binding enthalpy (ΔH), and stoichiometry (n). Values for free energy change (ΔG) and entropy contributions (TΔS) were derived from the equation ΔG = ΔH − TΔS = − RT ln Kd (with T = 298.15 K and R = 8.314 J mol^−1K^−1).

SMILES | TΔS [kcal/mol] | −ΔG [kcal/mol] | Kd [µM] | n (stoichiometry) | −ΔH [kcal/mol]
NCCOc1cccc(/N=N\c2cccc(O[C@@H]3O[C@H](CO)[C@H](O)[C@H](O)[C@H]3O)c2)c1 | -3.73 | 7.22 | 5.1 | 0.97 ± 0.04 | 10.9 ± 0.14
NCCOc1ccc(/N=N\c2ccc(S[C@@H]3O[C@H](CO)[C@H](O)[C@H](O)[C@H]3O)cc2)cc1 | -4.47 | 7.34 | 4.1 |  | 11.8 ± 0.096
NCCOc1ccc(/N=N\c2ccc(O[C@@H]3O[C@H](CO)[C@H](O)[C@H](O)[C@H]3O)cc2)cc1 | -3.23 | 6.64 | 13.6 | 1.04 ± 0.04 | 9.87 ± 0.12
NCCOc1ccc(/N=N\c2cccc(S[C@@H]3O[C@H](CO)[C@H](O)[C@H](O)[C@H]3O)c2)cc1 | -4.04 | 7.22 | 5.1 | 0.96 ± 0.02 | 11.3 ± 0.048
NCCOc1ccc(/N=N\c2ccccc2S[C@@H]2O[C@H](CO)[C@H](O)[C@H](O)[C@H]2O)cc1 | -2.46 | 7.36 | 4.1 | 0.96 ± 0.03 | 9.82 ± 0.096
